PubChem BioAssay AID504761 | Drosophila RNAi Screening Center – 2011
The deposit covers about 22,000 reagents; below is a random part of those that have a named target and a result. Of all reagents, 116 (0.52%) are marked active. 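Calls depend on retest data that are not deposited; infection was ranked per plate without normalising between plates; the unit of the infection score is not given.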 Raw values vary from plate to plate and are shown uncorrected. A plus sign joins genes that one reagent is predicted to hit. Not all columns of the deposit are shown. Not given: the amount of reagent, the time to read-out.

- Test: 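Fly genes whose silencing reduces dengue virus type 2 infection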 (primary screen)
- Cell system: D.Mel-2 cells from Drosophila
- Reagents: long dsRNA against Drosophila genes
- Conditions: infection with dengue virus type 2; dose and infection time not stated
- Measured: 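Per well on two replicate plates, imaging gave the percent of cells positive for viral envelope protein, ranked by infection, and a nuclear count of cells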
- Reading the numbers: infection score: higher = more virus-infected cells; cell count: higher = more cells in the well
- Active means: 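Low infection ranks in the two replicates (chance level up to 0.065) followed by a retest with a 1.5-fold or larger significant decrease, p below 0.05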
- Meaning of the calls: active = confirmed: knock-down lowers infection; inactive = not picked or not confirmed

With Ir68b [DRSC10251], what was measured?
infection score, replicate 1: 2.61; cell count, replicate 1: 6132; call: inactive

What did the screen give for CG10804 [DRSC17764]?
infection score, replicate 1: 9.22; cell count, replicate 1: 6639; call: inactive

With CG8135 + BBIP1 [DRSC12739], what was measured?
infection score, replicate 1: 2.22; cell count, replicate 1: 5715; call: inactive

With CG8135 + BBIP1 [DRSC16384], what was measured?
infection score, replicate 1: 3.41; cell count, replicate 1: 6457; call: inactive

What is on record for CG8135 + BBIP1 [DRSC26052]?
infection score, replicate 1: 2.8; cell count, replicate 1: 6777; call: inactive

What did the screen give for CG11373 [DRSC12170]?
infection score, replicate 1: 1.98; cell count, replicate 1: 6617; call: inactive

For whe [DRSC20537], how do the results read?
infection score, replicate 1: 2.81; cell count, replicate 1: 5513; call: inactive

For whe [DRSC26236], what was measured?
infection score, replicate 1: 4.54; cell count, replicate 1: 6491; call: inactive

How did the screen score GstE4 [DRSC06674]?
infection score, replicate 1: 12.5; cell count, replicate 1: 6704; call: inactive

What is on record for GstE4 [DRSC24213]?
infection score, replicate 1: 3.03; cell count, replicate 1: 6467; call: inactive

For Ir56b [DRSC06543], what does the deposit list?
infection score, replicate 1: 1.41; cell count, replicate 1: 6616; call: inactive

With Ir56b [DRSC28758], how do the results read?
cell count, replicate 1: 348; call: inactive
